Among the data in PubChem BioAssay AID624415 (National Center for Advancing Translational Sciences (NCATS), 2012) are activity change, negative = inhibition values, retold here.

By UniProt entry, the sequences of proteins in these tests, tags left out.
UniProt Q9GZU1, whole entry: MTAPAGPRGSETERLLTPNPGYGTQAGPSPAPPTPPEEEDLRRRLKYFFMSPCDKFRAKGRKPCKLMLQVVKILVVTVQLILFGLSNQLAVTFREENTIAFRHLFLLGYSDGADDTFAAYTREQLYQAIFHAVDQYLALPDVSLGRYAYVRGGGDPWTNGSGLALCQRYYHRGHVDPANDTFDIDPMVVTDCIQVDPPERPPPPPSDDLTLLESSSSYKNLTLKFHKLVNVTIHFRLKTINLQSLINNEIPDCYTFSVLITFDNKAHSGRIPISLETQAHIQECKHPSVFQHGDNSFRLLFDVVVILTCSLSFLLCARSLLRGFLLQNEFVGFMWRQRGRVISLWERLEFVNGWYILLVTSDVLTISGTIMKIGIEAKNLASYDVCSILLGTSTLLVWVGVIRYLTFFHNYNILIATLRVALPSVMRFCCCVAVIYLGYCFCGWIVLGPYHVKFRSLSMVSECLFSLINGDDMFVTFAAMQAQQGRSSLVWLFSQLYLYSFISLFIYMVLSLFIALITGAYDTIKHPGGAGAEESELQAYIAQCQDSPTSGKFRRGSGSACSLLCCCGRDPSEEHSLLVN

The list shows a part of the results, in another mix than the full data. Calls of active or inactive are those of the source. Cut-off read from the data, not from the text of the source: active = activity change below about -50%; inconclusive = between about -30% and that limit; inactive = weaker than that.
% is set by controls: 0 for no effect and ±100 for the full control effect.

The test deals with Mucolipin-1 (Homo sapiens) (UniProt Q9GZU1). As to the kind of experiment: qHTS for Inhibitors of the Human Mucolipin Transient Receptor Potential 1 (TRPML1).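 Note: stimulus is agonist 54-4 at its EC80 concentration.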 The conditions noted are these: TRPML1-inducible cells, Ca2+ dye fluorescence, FDSS; stronger effect = lower value; inhibition of EC80 agonist-evoked calcium signal. The text has this:
Mutations of human Mucolipin transient receptor potential 1 (TRPML1) cause type IV mucolipidosis (ML4), a devastating neurodegenerative disease in young children. […] Currently, there is no treatment for ML4. […] Under physiological conditions, TRPMLs regulate membrane trafficking by transducing information about PI(3,5)P2 levels into changes in juxtaorganellar Ca2+, thereby triggering membrane fusion/fission events in the late endocytic pathways (endolysosomal trafficking). In addition, TRPML1 mediates release of Fe2+ from late endosomes and lysosomes, which is essential for cellular iron metabolism. Thus, impaired ion (Ca2+ and Fe2+) homeostasis underlies lysosomal dysfunction and ML4 phenotypes. In ML4 cells, the problem is twofold. First, defective Ca2+-dependent membrane trafficking due to TRPML1-deficiency causes accumulation of lipids and other bio-materials in the lysosome. The second strike comes from the lysosomal iron overload (due to impairment of TRPML1's Fe2+ conductivity), which converts the accumulated materials into the nondegradable (resistant to lysosomal degradation) lipofuscin (also called aging pigment) in the lysosome. Lipofuscin accumulation dramatically compromises the functions of lysosomes.
Niemann-Pick type C (NPC) disease is another lysosome storage disease (LSD) with severe neurodegeneration during the childhood. Currently, there is no cure for NPC. […] Thus, TRPML1 is likely to be an essential regulator of lysosome ion homeostasis. We specifically hypothesize that stimulating TRPML1's Fe2+/Ca2+ channel activity in the lysosome using synthetic agonists can alleviate neurodegeneration associated with ML4 or NPC.
To this end, a high throughput screen was developed in a miniaturized format to screen against the Molecular Libraries Small Molecule Repository (MLSMR) to find small molecules that act either as inhibitors or agonist against the TRPML1 channel.
NIH Chemical Genomics Center [NCGC]
NIH Molecular Libraries Probe Centers Network [MLPCN]
Assay Submitter (PI): Haoxing Xu, University of Michigan Ann Arbor
TRPML1-DL cells are dissociated from flasks, counted and, brought up to a density of 500,000 cells per mL of media containing a 1X Tet inducer. Using a Multidrop Combi, 3 uL of this cell solution is dispensed to each well of a 1536 TC treated, black, clear bottom hi base plate for a final cell density of 1,500 cells per well. The assay plates are incubated overnight (approximately 16 hours) at 37 degrees C and 5% CO2. Using a Multidrop Combi, 2 uL of ABD Ca8 no wash dye plus quencher is added to each well. The assay plates incubate at room temperature in the dark for 45-90 minutes. The assay plate is read on the FDSS using the following protocol: 10 second baseline read, 23 nL of compounds and controls are added using 1536 pintool, agonist read for 110 seconds, 1 uL EC80 addition (4 uM final 54-4 diluted in media), antagonist read for 110 seconds.
For `COc1ccc(OP(C)(=O)Nc2ccc(SC(F)(F)F)cc2)cc1` (configuration not stated), the activity change, negative = inhibition is inactive: 3.94%.

Consider `O=P1(N(CCCl)CCCl)OCCC2CCCCN21` (configuration not stated), for which the activity change, negative = inhibition is inactive: 2.62%. To `CCOC(=O)c1ccc(NP(C)(=O)Oc2ccc(F)cc2)cc1` (configuration not stated) belongs inactive: -10%; to `c1ccc(-c2nn[nH]n2)c(-c2nn[nH]n2)c1`, inactive: 23.3%. To `Cc1ccc(NP(=O)(Oc2cccc(C)c2)Oc2cccc(C)c2)nc1` belongs inactive: 1.17%. To `O=C(NC1CCS(=O)(=O)C1)NP(=S)(Oc1ccccc1)Oc1ccccc1` (configuration not stated) belongs inactive: 0.457%; to `CCNC(=S)/N=C(\N)N[N+](=O)[O-]`, inactive: 17.1%. For `Cc1ccccc1OP(=O)(Nc1ccccn1)Oc1ccccc1C`, the activity change, negative = inhibition is inactive: -11%.

Turning to `CC(NC(=O)COC(=O)C(O)(c1ccccc1)c1ccccc1)c1ccccc1` (configuration not stated), the activity change, negative = inhibition was inactive: -12.2%. To `CN(C)C(=O)Oc1noc2ccccc12` belongs inactive: 1.29%; to `CCCCCOc1ccc(NP(C)(=O)Oc2ccc(Cl)cc2Cl)cc1` (configuration not stated), inactive: -16.2%. To `O=c1c2cc([N+](=O)[O-])ccc2[nH]c2c([N+](=O)[O-])cc([N+](=O)[O-])cc12` belongs inactive: 23.3%; to `CP(=O)(Nc1ccccc1)Oc1ccc(F)cc1` (configuration not stated), inactive: -0.588%; to `O=C(OC1CN2CCC1CC2)c1ccccc1` (configuration not stated), inactive: -1.28%. With `CCC(=O)N1C2C3N(C(=O)CC)C1C1N(C(=O)CC)C(C(N1C(=O)CC)N3C(=O)CC)N2C(=O)CC` the figure was inactive: -9.32%; with `CCN(CC)CCCOC(=O)C(O)(c1ccccc1)C1CCCCC1` (configuration not stated), inactive: -11%; with `COC(=O)c1cc2c(s1)N=C(c1ccccc1)N(C)P2(=O)N1CCOCC1` (configuration not stated), inactive: -8.05%. As for `Cc1c([N+](=O)[O-])cc([N+](=O)[O-])c(Br)c1[N+](=O)[O-]`, the activity change, negative = inhibition is inactive: 0.914%.

In the case of `CC(=O)NC(SC(=S)N(CC(C)C)CC(C)C)C(Cl)(Cl)Cl` (configuration not stated), the activity change, negative = inhibition is inactive: 8.22%. As for `Cc1ccc(OP(=O)(Nc2ccccn2)Oc2ccc(C)cc2)cc1`, the activity change, negative = inhibition was inactive: -9.8%. With `CC(C)(C)C(=O)NC(Sc1ccccc1)C(Cl)(Cl)Cl` (configuration not stated), the activity change, negative = inhibition is inactive: -11.2%. As to `CC(C)c1ccc(OP(C)(=O)Nc2ccc(SC(F)(F)F)cc2)cc1` (configuration not stated), the activity change, negative = inhibition was inactive: -14.1%. On to `CCc1cc(O)c([N+](=O)[O-])c(C)c1[N+](=O)[O-]`, for which the activity change, negative = inhibition is inactive: -5.81%. For `CP(=O)(Nc1ccccc1F)Oc1ccccc1` (configuration not stated), the activity change, negative = inhibition is inactive: 0.96%.

For `O=P1(Nc2nc3ccc(Cl)cc3s2)COc2ccccc2O1` (configuration not stated), the activity change, negative = inhibition is inactive: 10.7%.

Consider `CCOc1ccc(C2=NCC(CBr)S2)cc1` (configuration not stated), for which the activity change, negative = inhibition is inactive: -4.02%. Consider `CC(=O)Nc1ccc([As](=O)(O)O)c(O)c1`, for which the activity change, negative = inhibition was inactive: 5.62%.
